In article PMC10883919:
For at least one entry, the source does not settle the construct or the ends of the probe. For some assays here: Protein sequences can lack the tags named with them.

Assays:
[1] = target: T1, TcrX (Mycobacterium tuberculosis H37Rv) (UniProt O69730); assay: EMSA; conditions: unphosphorylated, weaker than P~TcrX; recombinant protein; residues 1-234; probe letters rebuilt from the primers and the genome
T1 sequence (looked up): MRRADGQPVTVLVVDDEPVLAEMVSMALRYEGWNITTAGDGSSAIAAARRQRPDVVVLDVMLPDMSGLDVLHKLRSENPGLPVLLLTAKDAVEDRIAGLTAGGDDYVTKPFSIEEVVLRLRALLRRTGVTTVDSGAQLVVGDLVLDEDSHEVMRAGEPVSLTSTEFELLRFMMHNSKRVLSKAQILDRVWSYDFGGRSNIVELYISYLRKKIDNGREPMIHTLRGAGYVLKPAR

[2] = target: P~TcrX (phosphorylated TcrX) (Mycobacterium tuberculosis H37Rv) (UniProt O69730); assay: EMSA; conditions: recombinant protein; residues 1-234; probe letters rebuilt from the primers and the genome

CTTTTGAATATCGCTCGGCCGGCAACCACCGTAAAGGGTTGCGGTTACAAACGTGCCATGAACTGGTGCAGCCCGGTGCCTTGGGTGGACACCGGGCTGCTGGTTGTCGGTTACGGAGCGGGTGTCGCGGGAGGACTGACGGACGACGGCACCTGGCCGGGCCCGCCCGGGCCTGGGCCGGGACGCACTGCCGCGGGCCCACCGTGCGGACTGCCCGGTCGCAGCATCATCGCCGGGTGCTGGTGGTGTTGCCGGTGGTGGAAGCCGCCGTGACCGGCATGCTTGCCGAGGATATAGCCGGTGAAGAAGATGACCGCCACGATGAACACGGTTC (double strand) [PRv3705A]
binding result [1]: binds
binding result [2]: binds
